Data source: PubChem BioAssay AID1259414 (Drosophila RNAi Screening Center, 2018)

- Aim: 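Genome-wide screen for host control of endosymbiont load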 (primary screen)
- Cell system: Drosophila JW18 cells infected with Wolbachia
- Knock-down reagent: long dsRNA against Drosophila genes, 0.25 µg dsRNA per well of a 384-well plate
- Timing: 5 days
- Challenge: cells persistently infected with Wolbachia before knock-down; no added drug
- Measured: 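Automated imaging of bacterial rRNA staining divided by host cell count, reported as plate-normalised robust z-score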
- Reading the numbers: Wolbachia per cell robust z: higher = more Wolbachia per host cell than the plate typical
- Call rule: 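Hit when robust z is 1.5 or more, or -1.5 or less, in at least two of three replicates; excludes dsRNAs with several or no targets, genes not expressed in JW18 and well A1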
The screen tested about 24,000 reagents; this is an unselected part of those with a known target gene and a result. Of all reagents, about 1,210 (5%) got an active call. 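Inactive calls also include excluded dsRNAs with several or no targets, genes unexpressed in JW18, and well A1, regardless of score.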 Names joined by + are all predicted targets of the reagent.

RpL28 + snoRNA:Or-CD12 [DRSC08293] showed Wolbachia per cell robust z, rep 1 = 3.61; Wolbachia per cell robust z, rep 2 = 2.83; Wolbachia per cell robust z, rep 3 = 3.11; inactive.
Knock-down of CG6686 [DRSC02979] resulted in: Wolbachia per cell robust z, rep 1 = 1.17; Wolbachia per cell robust z, rep 2 = 0.000687; Wolbachia per cell robust z, rep 3 = 1.1; inactive.
Depletion of CG6686 [DRSC27705] resulted in: Wolbachia per cell robust z, rep 1 = -0.7; Wolbachia per cell robust z, rep 2 = -1.01; Wolbachia per cell robust z, rep 3 = 0.651; inactive.
Knock-down of CG17260 [DRSC00497] resulted in: Wolbachia per cell robust z, rep 1 = 0.137; Wolbachia per cell robust z, rep 2 = 0.636; Wolbachia per cell robust z, rep 3 = -0.482; inactive.
Against CG17260 [DRSC29415] the deposit lists Wolbachia per cell robust z, rep 1 = -0.508; Wolbachia per cell robust z, rep 2 = -0.85; Wolbachia per cell robust z, rep 3 = 0.212; inactive.
Depletion of Tsp5D [DRSC18380] came out at: Wolbachia per cell robust z, rep 1 = -1.05; Wolbachia per cell robust z, rep 2 = 0.0345; Wolbachia per cell robust z, rep 3 = 0.0699; inactive.
CG10550 [DRSC14251] scored Wolbachia per cell robust z, rep 1 = 1.24; Wolbachia per cell robust z, rep 2 = 0.116; Wolbachia per cell robust z, rep 3 = -0.694; inactive.

Already shown: an excerpt of the list.
CG6686 [DRSC27705] → Wolbachia per cell robust z, rep 1 = -0.7; Wolbachia per cell robust z, rep 2 = -1.01; Wolbachia per cell robust z, rep 3 = 0.651; activity call = inactive
CG17260 [DRSC00497] → Wolbachia per cell robust z, rep 1 = 0.137; Wolbachia per cell robust z, rep 2 = 0.636; Wolbachia per cell robust z, rep 3 = -0.482; activity call = inactive
CG17260 [DRSC29415] → Wolbachia per cell robust z, rep 1 = -0.508; Wolbachia per cell robust z, rep 2 = -0.85; Wolbachia per cell robust z, rep 3 = 0.212; activity call = inactive

The listing continues.
Against pwn [DRSC06035], the entry reads Wolbachia per cell robust z, rep 1 = 0.891; Wolbachia per cell robust z, rep 2 = 0.582; Wolbachia per cell robust z, rep 3 = 1.45; inactive.
Knock-down of pwn [DRSC25224] gave: Wolbachia per cell robust z, rep 1 = -0.356; Wolbachia per cell robust z, rep 2 = 0.703; Wolbachia per cell robust z, rep 3 = -0.645; inactive.
CG10802 [DRSC17762] gave Wolbachia per cell robust z, rep 1 = -0.439; Wolbachia per cell robust z, rep 2 = -1.36; Wolbachia per cell robust z, rep 3 = -0.348; inactive.
With knock-down of CG10802 [DRSC29607], the record shows Wolbachia per cell robust z, rep 1 = -2.16; Wolbachia per cell robust z, rep 2 = -0.0703; Wolbachia per cell robust z, rep 3 = 1.52; inactive.
CG9068 [DRSC07329] scored Wolbachia per cell robust z, rep 1 = -1.31; Wolbachia per cell robust z, rep 2 = -1.05; Wolbachia per cell robust z, rep 3 = 0.665; inactive.
GILT2 [DRSC14196] scored Wolbachia per cell robust z, rep 1 = -0.0532; Wolbachia per cell robust z, rep 2 = -0.178; Wolbachia per cell robust z, rep 3 = -2.18; inactive.
For CG17683 [DRSC21160], the entry reads Wolbachia per cell robust z, rep 1 = -0.287; Wolbachia per cell robust z, rep 2 = -0.733; Wolbachia per cell robust z, rep 3 = 0.329; inactive.
Depletion of CG17683 [DRSC27534] gave: Wolbachia per cell robust z, rep 1 = -3.14; Wolbachia per cell robust z, rep 2 = 0.831; Wolbachia per cell robust z, rep 3 = -0.00259; inactive.
Silencing of CG13978 [DRSC14720] came out at: Wolbachia per cell robust z, rep 1 = -2.17; Wolbachia per cell robust z, rep 2 = -0.561; Wolbachia per cell robust z, rep 3 = 0.57; inactive.
